Laboratory results taken from publication PMC5015959, “The Binding of Plasmodium falciparum Adhesins and Erythrocyte Invasion Proteins to Aldolase Is Enhanced by Phosphorylation” (PLoS ONE, 2016).

Amino acid sequences for entries named in this document (tags omitted).
UniProt Q7KQL9, whole entry: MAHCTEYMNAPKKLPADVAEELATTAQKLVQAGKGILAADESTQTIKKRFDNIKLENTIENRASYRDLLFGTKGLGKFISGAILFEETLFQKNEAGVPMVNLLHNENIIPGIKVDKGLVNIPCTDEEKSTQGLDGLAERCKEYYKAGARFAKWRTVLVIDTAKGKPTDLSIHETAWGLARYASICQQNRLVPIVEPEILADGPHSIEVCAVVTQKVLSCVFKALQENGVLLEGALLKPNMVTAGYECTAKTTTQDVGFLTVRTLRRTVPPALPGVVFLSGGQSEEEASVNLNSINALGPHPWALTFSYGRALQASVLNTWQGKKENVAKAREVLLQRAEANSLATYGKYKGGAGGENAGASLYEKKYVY

Target: P. falciparum aldolase (Plasmodium falciparum, UniProt Q7KQL9)
Conditions: unmodified or phosphorylated CTDs (phosphorylated synthetic peptides or peptides phosphorylated in vitro); Octet Red, 100 mM Tris-HCl pH 8.0, 25°C; mean of duplicate reactions

With `NS(=O)(=O)c1cc2c(cc1Cl)NC(C(Cl)Cl)NS2(=O)=O` (stereo not shown) the Kd was 2500 nM.

The match of structure and compound is tentative.
